Measured values from several laboratories, pooled; numbers as filed in NIAID ChemDB.

Shared fields: growth or infection tests; agent: Mycobacterium tuberculosis

MIC50, MIC90 and the like: level of inhibition, or share of isolates inhibited. Fold resistance: result on the changed form divided by that on wild type. Neighbouring rows are from separate reports. ECn: concentration that inhibits the pathogen or its effect by n%. Percent inhibition refers to the dose given; in toxicity tests it is the harm to the cells. MIC bound comes from a single tested concentration. An empty or dashed field is not shown.

| SMILES | setting | strain or isolate | cells | tested at | method | mutations | endpoint | result |
|---|---|---|---|---|---|---|---|---|
| CC(=O)ONC(=O)CSc1nn2cc(-c3ccccc3)nc2s1 |  | H37Rv |  |  | BACTEC |  | MIC bound | >12.5 µg/mL |
| CC(=O)Nc1ccc(OCC(=O)NN2C(=O)CSC2/C=C/c2ccccc2)cc1 |  | H37Rv |  |  |  |  | EC50 | >12.5 µg/mL |
| CCCCn1c(-c2ccccc2)cs/c1=N\N=C1/C(=O)Nc2ccccc21 |  | H37Rv |  |  |  |  | EC50 | >12 µg/mL |
| CC1COc2c(N3CCN(C)CC3)c(F)cc3c(=O)c(C(=O)O)cn1c23 |  | 90-0240 (drug-susceptible) |  |  |  |  | MIC | 0.5 µg/mL |
| Cc1ccc(NC(=O)CSc2nnc(-c3ccco3)o2)cc1F |  | Clinical isolate |  |  | resazurin |  | MIC | 16 µg/mL |
| CCOc1ccc2c(N/N=C/c3c(OC)ccc4ccccc34)ccnc2c1 |  | H37Rv | VERO | 12.5 µg/mL |  |  | inhibition | 100% |
| CCc1nc2ccccc2n1CCCCSc1nnc(-c2ccc(Cl)cc2)o1 |  | H37Rv |  |  | turbidity / fluorescence | QcrB M342T | fold resistance | 313 |
| CN(C)c1ccc(O)c2c1C[C@H]1C[C@H]3[C@H](N(C)C)C(=O)C(C(N)=O)=C(O)[C@@]3(O)C(=O)C1=C2O |  | H37Ra |  |  |  |  | Mean MIC | 2 µg/mL |
| O=C(N=Nc1c(O)[nH]c2ccccc12)C(F)(F)F |  | H37Rv |  | 12.5 µg/mL | BACTEC |  | inhibition | 48% |
| CCNC(=S)N=Nc1c(O)[nH]c2ccccc12 |  | H37Rv |  |  |  |  | EC50 | >12 µg/mL |
| Nc1nc(N)c(C(=O)SCc2ccccc2)nc1Cl |  | H37Rv |  | 12.5 µg/mL | BACTEC |  | inhibition | 52% |
| CC1S/C(=N/N=C2\C(=O)Nc3ccc(Br)cc32)N(c2ccc(Cl)cc2)C1=O |  | H37Rv |  |  |  |  | MIC | >12.5 µg/mL |
| NC(=O)c1cnccn1 |  | W478 |  |  |  |  | MIC | 15 µg/mL |
| Nc1ccc2c(c1)oc1ccccc12 |  | H37Rv |  |  | BACTEC |  | MIC bound | >12.5 µg/mL |
| CCCCc1ccc2nccc(N/N=C/c3ccc(OC)c4ccccc34)c2c1 |  | H37Rv | VERO | 12.5 µg/mL |  |  | inhibition | 100% |
| Cn1cc(N)cc1C(=O)Nc1cc(C(=O)Nc2ccc3cc(S(=O)(=O)O)cc(S(=O)(=O)O)c3c2)n(C)n1 |  | H37Rv |  | 12.5 µg/mL | BACTEC |  | inhibition | 0% |
| CCCCn1c(-c2ccc(Cl)cc2Cl)cs/c1=N\NC(=O)COc1cnccn1 |  | H37Rv |  |  |  |  | MIC | 7.2 µg/mL |
| CC(C)N=c1cc2n(-c3ccc(Cl)cc3)c3ccccc3nc-2cc1Nc1ccc(Cl)cc1 | multidrug-resistant | 2225 |  |  |  |  | MIC | 0.5 µg/mL |
| CC(=O)Nc1ccc(OCC(=O)NN2C(=O)CSC2c2ccc(N(C)C)cc2)cc1 |  | H37Rv |  | 12.5 µg/mL |  |  | inhibition | 0% |
| CC1=C2c3ccccc3N(S(=O)(=O)c3ccccc3)[C@H]2C(C(=O)N2C3CC4CC[C@@]3(CS2(=O)=O)C4(C)C)CC1 |  | H37Rv |  | 12.5 µg/mL | BACTEC |  | inhibition | 0% |
| O=C(NCCCN1c2ccccc2Sc2ccccc21)N1C(=O)/C(=C\c2ccccc2Cl)SC1c1ccccc1Cl |  | H37Rv |  | 25 µg/mL | agar |  | inhibition | 32% |
| Cn1cnc([N+](=O)[O-])c1N1CCN(c2ccccc2)CC1 |  | H37Rv |  | 6.25 µg/mL | resazurin |  | inhibition | 21% |
| CC1COc2c(N3CCN(C)CC3)c(F)cc3c(=O)c(C(=O)O)cn1c23 |  | 001-012 (drug-resistant) |  |  |  |  | MBC | 2 µg/mL |
| COc1cc(C2SC(C)C(=O)N2NC(=O)COc2ccc(NC(C)=O)cc2)ccc1O |  | H37Rv |  |  |  |  | EC50 | >12.5 µg/mL |
| CCN(CC)c1ccc(/C=N/Nc2cc(C)nc3cc(Cl)ccc23)cc1 |  | H37Rv | VERO |  |  |  | MIC | 6.25 µg/mL |
| NC[C@H]1O[C@H](O[C@H]2[C@H](O)[C@@H](O[C@H]3O[C@H](CO)[C@@H](O)[C@H](N)[C@H]3O)[C@H](N)C[C@@H]2N)[C@H](O)[C@@H](O)[C@@H]1O |  | 90-0145 (drug-susceptible) |  |  |  |  | MIC | 4 µg/mL |
| CC1(C(=O)Nc2cccc(Cl)c2Cl)Cc2ccccc2C(=O)O1 |  | 18b |  |  | resazurin |  | MIC | 8 µg/mL |
| CCc1ccc(NCc2cc(OC)c(OC)c(OC)c2)cc1 |  | H37Rv |  |  | BACTEC |  | MIC | ≥12.8 µg/mL |
| COc1cccc(C2SCC(=O)N2C(=O)NCCCN2c3ccccc3Sc3ccccc32)c1 |  | H37Rv |  | 50 µg/mL | agar |  | inhibition | 53% |
| CCCN1CNC(=S)N(c2ccc(C(=O)OCC)cc2)C1 |  | Clinical isolate |  |  | resazurin |  | MIC | 0.5 µg/mL |
| NC[C@H]1O[C@H](O[C@H]2[C@H](O)[C@@H](O[C@H]3O[C@H](CO)[C@@H](O)[C@H](N)[C@H]3O)[C@H](N)C[C@@H]2N)[C@H](O)[C@@H](O)[C@@H]1O |  | H37Ra |  |  |  |  | Mean MIC | 2.5 µg/mL |
| CC[C@H]1OC(=O)[C@H](C)[C@@H](O[C@H]2C[C@@](C)(OC)[C@@H](O)[C@H](C)O2)[C@H](C)[C@@H](O[C@@H]2O[C@H](C)C[C@H](N(C)C)[C@H]2O)[C@](C)(OC)C[C@@H](C)C(=O)[C@H](C)[C@@H](O)[C@]1(C)O |  | 92-0492 MDR (INH RIF-resistant) |  |  |  |  | MIC | 4 µg/mL |
| O=C(Nc1ccc(C2=NCCN2)cc1)c1cccc(C(=O)Nc2ccc(C3=NCCN3)cc2)c1Cl |  | H37Rv |  |  | BACTEC |  | MIC bound | >12.5 µg/mL |
| CCc1cc(C(N)=S)ccn1 |  | H37Ra |  |  |  |  | Mean MIC | 1.09 µg/mL |
| CO[C@H]1/C=C/O[C@@]2(C)Oc3c(C)c(O)c4c(O)c(c(/C=N/N5CCN(C/C=C/c6ccccc6)CC5)c(O)c4c3C2=O)NC(=O)/C(C)=C\C=C\[C@H](C)[C@H](O)[C@@H](C)[C@@H](O)[C@@H](C)[C@H](OC(C)=O)[C@@H]1C |  | MTB14 (RIF-S) |  |  |  |  | MIC | ≤0.06 µg/mL |
| CC(C)N=c1cc2n(-c3ccc(Cl)cc3)c3ccccc3nc-2cc1Nc1ccc(Cl)cc1 |  | MDR9 |  |  | broth dilution / resazurin |  | MIC | 0.25 µg/mL |
| CCc1nc2ccccc2n1CCCCOc1ccccc1 |  | H37Rv |  |  | turbidity / fluorescence | WT | MIC90 | 16 µM |
| CNc1nc(N2CCCC2)nc(-n2cnc(SCC(=O)OC)n2)n1 |  | Clinical isolate |  |  | resazurin |  | MIC | 16 µg/mL |
| O=C(O)c1nc(Cl)c(Cl)[nH]c1=O |  | H37Rv |  | 12.5 µg/mL | BACTEC |  | inhibition | 35% |
| CCc1nc2ccccc2n1CCCCOc1cccc(C)c1 |  | H37Rv |  |  | turbidity / fluorescence | QcrB M342T | MIC90 | 16 µM |
| Nc1ccc(C(=O)N/N=C/c2ccccc2O)cc1 |  | H37Rv |  |  | BACTEC |  | MIC bound | >12.5 µg/mL |
| O=S(=O)(c1ccc(Cl)cc1)c1cnc2ccccc2c1N1CCCC1 |  | 18b |  |  | resazurin |  | MIC | 16 µg/mL |
| CCCCN=C(N=Nc1c(O)[nH]c2ccccc12)SCC(=O)c1ccc([N+](=O)[O-])cc1 |  | H37Rv |  |  |  |  | MIC | 12.5 µg/mL |
| N#Cc1ccc(N2CCCC2)c(C#N)c1Cl |  | H37Rv |  | 12.5 µg/mL | BACTEC |  | inhibition | 31% |
| CCc1nc2ccc(C)cc2n1CCCCNc1ccc(C)cc1 |  | H37Rv |  |  | turbidity / fluorescence | QcrB M342T | MIC90 | 48 µM |
| CCCCn1c(-c2ccc(OC)cc2)cs/c1=N\NC(=O)COc1cnccn1 |  | H37Rv |  |  |  |  | MIC | 18 µg/mL |
| CC(=O)Nc1ccc(OCC(=O)NN2C(=O)CSC2c2ccccc2[N+](=O)[O-])cc1 |  | H37Rv |  |  |  |  | EC50 | >12.5 µg/mL |
| CN1c2ccccc2CCC1CCc1ccc2c(c1)OCO2 |  | MT10 |  |  |  |  | MIC | >100 µg/mL |
| CN(C)[C@@H]1C(=O)C(C(N)=O)=C(O)[C@@]2(O)C(=O)C3=C(O)c4c(O)cccc4C[C@H]3C[C@@H]12 |  | H37Rv |  | 12.8 µg/mL | BACTEC |  | inhibition | 97% |
| CC(C)NC(=S)NNC(=O)COc1cnccn1 |  | H37Rv |  |  |  |  | MIC | 63 µg/mL |
| C[C@@H]1CN(c2c(F)c(N)c3c(=O)c(C(=O)O)cn(C4CC4)c3c2F)C[C@H](C)N1 |  | 90-0145 (drug-susceptible) |  |  |  |  | MIC | 0.2 µg/mL |
| O=C(COc1cnccn1)N/N=c1\scc(-c2ccc(Cl)cc2Cl)n1-c1ccc(Cl)cc1[N+](=O)[O-] |  | H37Rv |  |  |  |  | MIC | 3.6 µg/mL |
| CN[C@@H]1[C@H](O[C@H]2[C@H](O[C@H]3[C@H](O)[C@@H](O)[C@H](N=C(N)N)[C@@H](O)[C@@H]3N=C(N)N)O[C@@H](C)[C@]2(O)C=O)O[C@@H](CO)[C@H](O)[C@H]1O |  | A2B (amikacin-resistant) |  |  |  |  | MIC | 4 µg/mL |
| O=C(/N=C/c1cccc(Br)c1)NCCCN1c2ccccc2Sc2ccccc21 |  | H37Rv |  | 50 µg/mL | agar |  | inhibition | 50% |
| CCc1nc2ccc(C)cc2n1CCCCNc1cccc(C(F)(F)F)c1 |  | H37Rv |  |  | turbidity / fluorescence |  | MIC99 | 0.55 µM |
| Nc1ccc(C(=O)O)c(O)c1 |  | H37Ra |  |  |  |  | Mean MIC | 1.75 µg/mL |
| NC1=NNC(=O)C1 |  | H37Rv |  |  | BACTEC |  | MIC bound | >12.5 µg/mL |
| NCC[C@H](O)C(=O)N[C@@H]1C[C@H](N)[C@@H](O[C@H]2O[C@H](CN)[C@@H](O)[C@H](O)[C@H]2O)[C@H](O)[C@H]1O[C@H]1O[C@H](CO)[C@@H](O)[C@H](N)[C@H]1O |  | 90-0216 (drug-susceptible) |  |  |  |  | MIC | 0.5 µg/mL |
| CCCCc1ccc2nc(C)cc(N/N=C/c3ccc4c(c3)OCO4)c2c1 |  | H37Rv | VERO |  |  |  | MIC | 6.25 µg/mL |
| CC(=O)Nc1cc2c(O)c(N=Nc3ccc(C(=O)Nc4ccc(N=Nc5ccc(S(=O)(=O)O)cc5)cc4)cc3)c(S(=O)(=O)O)cc2cc1S(=O)(=O)O |  | H37Rv |  |  | BACTEC |  | MIC | ≥12.5 µg/mL |
| CC1CCCC(C)N1C(=O)c1noc2c1CC(C(C)(C)C)CC2 |  | 18b |  |  | resazurin |  | MIC | 8 µg/mL |
| COc1ccc(-c2cs/c(=N\NC(=O)COc3cnccn3)n2-c2ccc(Cl)cc2)cc1 |  | H37Rv |  |  |  |  | MIC | 16 µg/mL |
| CCCCCc1cc(OC)c2ccccc2n1 |  | MT3 |  |  |  |  | MIC | 12.5 µg/mL |
| O=C1/C=C2/C=CC=CN2C(=O)/C=C2/C=CC=CN12 |  | H37Rv |  | 12.5 µg/mL | BACTEC |  | inhibition | 1% |
| NNC(=O)c1ccncc1 |  | 89996 |  |  |  |  | MIC | ≥0.2 µg/mL |
| CC[C@H]1OC(=O)[C@H](C)[C@@H](O[C@H]2C[C@@](C)(OC)[C@@H](O)[C@H](C)O2)[C@H](C)[C@@H](O[C@@H]2O[C@H](C)C[C@H](N(C)C)[C@H]2O)[C@](C)(OC)C[C@@H](C)C(=O)[C@H](C)[C@@H](O)[C@]1(C)O |  | H37Ra |  |  |  |  | Median MIC | 1.5 µg/mL |
| CN[C@@H]1[C@H](O[C@H]2[C@H](O[C@H]3[C@H](O)[C@@H](O)[C@H](N=C(N)N)[C@@H](O)[C@@H]3N=C(N)N)O[C@@H](C)[C@]2(O)C=O)O[C@@H](CO)[C@H](O)[C@H]1O |  | 90-0233 (INH SM-RS) |  |  |  |  | MIC | 16 µg/mL |
| CC[C@H]1OC(=O)[C@H](C)[C@@H](O[C@H]2C[C@@](C)(OC)[C@@H](O)[C@H](C)O2)[C@H](C)[C@@H](O[C@@H]2O[C@H](C)C[C@H](N(C)C)[C@H]2O)[C@](C)(OC)C[C@@H](C)C(=O)[C@H](C)[C@@H](O)[C@]1(C)O |  | 42494 |  |  |  |  | MIC | >4 µg/mL |
| Cc1onc(-c2ccccc2Cl)c1C(=O)N[C@@H]1C(=O)N2[C@@H]1SC(C)(C)[C@@H]2C(=O)O |  | H37Rv |  |  |  |  | Median MIC | >256 µg/mL |
| CC(C)n1c(-c2ccc(O)cc2)cs/c1=N\NC(=O)COc1cnccn1 |  | H37Rv |  |  |  |  | MIC | 11 µg/mL |
| COc1cc2c(oc(=O)c3cc(C)cc(OC)c32)c2c(C3OC(C)C(O)C(C)(O)C3O)ccc(O)c12 |  | ETA-R |  |  |  |  | MIC | 12.5 µg/mL |
| Cc1ccccc1/C=N/C(=O)NCCCN1c2ccccc2Sc2ccccc21 |  | H37Rv |  | 50 µg/mL | agar |  | inhibition | 38% |
| O=C1CCC(=O)N1[N+](=O)[O-] |  | H37Rv |  |  | BACTEC |  | MIC bound | >12.5 µg/mL |
| CCOc1ccc2c(N/N=C/c3ccc(N(CC)CC)cc3)cc(C)nc2c1 |  | H37Rv | VERO | 12.5 µg/mL |  |  | inhibition | 100% |
| [N-]=[N+]=N[C@H]1C[C@H](n2ccc(N)nc2=O)O[C@@H]1CO |  | H37Rv |  | 12.5 µg/mL | BACTEC |  | inhibition | 23% |
| O=C1CSC(c2ccc(Cl)cc2)N1C(=O)NCCCN1c2ccccc2Sc2ccccc21 |  |  |  | 25 µg/mL | agar |  | inhibition | 25% |
| Cn1ccn(C2CCCCC2)c1=O |  | H37Rv |  |  | BACTEC |  | MIC bound | >12.5 µg/mL |
| CCc1nc2ccc(C)cc2n1CCCNc1ccccc1 |  | H37Rv |  |  | turbidity / fluorescence | QcrB M342T | MIC90 | 4.1 µM |